Anti-infective test results gathered from many reports (values: NIAID ChemDB through PubChem).

Common to all: toxicity to cultured cells; cells: CEM; measure: CC50

Conditions beyond the fields shown may differ between rows.

structure	read by	value
CCCCCCCCCCC(c1ccc(O)c(C(=O)O)c1)c1ccc(O)c(C(=O)O)c1		84.6 µM
Cc1ccccc1C(c1ccccc1)S(=O)(=O)c1cccc[n+]1[O-]	cell count	47 µg/mL
Cn1cc(NC(=O)[C@@H]2CCC(N)=N2)cc1C(=O)NCCC(=N)N		>127 µM
Cc1ccc(C)c(C(C)S(=O)c2cccc[n+]2[O-])c1	cell count	1.6 µg/mL
Nc1nc(=O)n([C@H]2CC[C@@H](CO)O2)cc1F		>40 µM
O=C(CN1c2c(-c3ccccc3)n[nH]c2-c2ccccc2S1(=O)=O)N/N=C/c1c(Cl)cccc1Cl		<1 µM
Cc1cn(C2OC(CO[Si](C)(C)C(C)(C)C)C3(OS(=O)(=O)C=C3N)C2O[Si](C)(C)C(C)(C)C)c(=O)n(CCCNC(=O)c2ccc(C(=O)c3ccccc3)cc2)c1=O		≥250 µM
O=C1C(Cl)=C(C2=C(Cl)C(=O)c3ccccc3C2=O)C(=O)c2ccccc21	MTT	5.4 µM
O=S(=O)(Cc1ccccc1)c1ccccn1	cell count	68 µg/mL
Clc1ccc(C2ON=C(c3ccccc3)N2C23CC4CC(CC(C4)C2)C3)cc1		>200 µM
Cc1cc(S(=O)(=O)Nc2nnc3cnc4ccccc4n23)c(S)cc1Cl		>200 µM
COC(=O)C(c1cccc(Oc2ccccc2)c1)S(=O)(=O)c1cccc[n+]1[O-]	cell count	26 µg/mL
CCCCCCCCCCCCCCCC[n+]1ccc2cc(OC)c(OC)c3c2c1C=CN3		1.8 µM
Cc1ccc(C)c(C(C)S(=O)(=O)c2ccccn2)c1	cell count	3.1 µg/mL
Cn1cc(NC(=O)c2cc(NC(=O)[C@@H]3CCC(N)=N3)c[nH]2)cc1C(=O)NCCC(=N)N		750 µM
COC(=O)CC1(O)C(O[Si](C)(C)C(C)(C)C)[C@H](n2ccc(=O)[nH]c2=O)O[C@@H]1CO[Si](C)(C)C(C)(C)C	propidium iodide / flow cytometry	4.8 µM
O=C(OC1CCCCC1)c1cc(NC(=S)c2ccccc2)ccc1Cl		5.2 µg/mL
Cc1cn(C2OC(CO[Si](C)(C)C(C)(C)C)C3(OS(=O)(=O)C=C3N)C2O[Si](C)(C)C(C)(C)C)c(=O)n(/C=C/CO)c1=O		3.4 µM
COc1cc(/C=N/N=C(\N)NO)c(Cl)cc1O.Cc1ccc(S(=O)(=O)O)cc1		69 µg/mL
Cc1ccc(C)c(C(C)(Cl)S(=O)(=O)c2cccc[n+]2[O-])c1	cell count	23 µg/mL
O=C1C(O)=C(C2=C(C3=C(O)C(=O)c4ccccc4C3=O)C(=O)c3ccccc3C2=O)C(=O)c2ccccc21	MTT	28 µM
COc1cc(/C=C(/C#N)Sc2cccc[n+]2[O-])cc(OC)c1OC	cell count	3.3 µg/mL
CC(C)C[C@H](NC(=O)OC(C)(C)C)C(=O)O[C@H](CN1C[C@H]2CCCC[C@H]2C[C@H]1C(=O)NC(C)(C)C)[C@H](Cc1ccccc1)NC(=O)[C@H](CC(N)=O)NC(=O)c1ccc2ccccc2n1	MTT	>100 µM
C/C=C/CSc1cc(NC(=O)c2ccoc2C)ccc1Cl		5.9 µg/mL
Cc1c(OC(=O)CCCCOc2ccc(C[C@H](NC(=O)OC(C)(C)C)C(=O)O)cc2)cccc1C(=O)N[C@@H](CSc1ccccc1)[C@@H](CN1C[C@H]2CCCC[C@H]2C[C@H]1C(=O)NC(C)(C)C)OC(=O)CCCCOc1ccc(C[C@H](NC(=O)OC(C)(C)C)C(=O)O)cc1	MTT	>100 µM
COc1ccc2c(c1)C(O)=C(C1=C(I)C(=O)c3ccccc3C1=O)C(=O)C2=O	MTT	6 µM
Cc1ccc(C)c(C(Cc2ccccc2)S(=O)(=O)c2cccc[n+]2[O-])c1	cell count	30 µg/mL
COc1ccc2c(c1)C(=O)C(I)=C(C1=C(O)c3ccccc3C(=O)C1=O)C2=O	MTT	7.5 µM
Cc1ccc(C(C)S(=O)(=O)c2c(C)ccc[n+]2[O-])c(C)c1		>100 µg/mL
Cc1sccc1C(=O)Nc1ccc(Cl)c(C(=O)OC(C)C)c1		5.5 µg/mL
Cc1cc(C)c(CS(=O)c2cccc[n+]2[O-])c(C)c1		35 µg/mL
O=S(=O)(Cc1ccccc1)c1cccc[n+]1[O-]	cell count	36 µg/mL
O=C(CN1c2c(-c3ccccc3)n[nH]c2-c2ccccc2S1(=O)=O)N/N=C/c1cccc(Br)c1		6.8 µM
CC(C)(C)[Si](C)(C)OC[C@H]1O[C@@H](n2ccc(=O)[nH]c2=O)[C@H](O[Si](C)(C)C(C)(C)C)[C@]12O[C@@H]2CO	propidium iodide / flow cytometry	26 µM
O=C(CN1c2c(-c3ccccc3)n[nH]c2-c2ccccc2S1(=O)=O)N/N=C/c1ccc([N+](=O)[O-])cc1		20.8 µM
Fc1cccc(C2ON=C(c3ccccc3)N2C23CC4CC(CC(C4)C2)C3)c1		>200 µM
COc1ccc2c(c1)C(=O)C(Cl)=C(C1=C(N)C(=O)c3ccccc3C1=O)C2=O	MTT	3.6 µM
COc1cccc(C2ON=C(c3ccccc3)N2C23CC4CC(CC(C4)C2)C3)c1		55 µM
CC(C)=CCOc1cc(NC(=S)c2ccoc2C)ccc1Cl		>100 µg/mL
Cc1cccc(C(C#N)S(=O)c2cccc[n+]2[O-])c1	cell count	0.74 µg/mL
CCCCCC=C(c1cc(Cl)c(OC)c(C(=O)OC)c1)c1cc(Cl)c(OC)c(C(=O)OC)c1		>28.2 µM
Cc1ccc(S(=O)(=O)O)cc1.N/C(=N\N=C\c1ccccc1)NO		35 µg/mL
Nc1ncnc2c1ncn2C1OC(CO)C=C1F		>100 µM
Brc1cccc(C2ON=C(c3ccccc3)N2C23CC4CC(CC(C4)C2)C3)c1		>200 µM
Cc1cc(Cl)cc(S)c1S(=O)(=O)Nc1nnc2c3ccccc3cnn12		>200 µM
CCCCCCCCCCCCN1C=Cc2cc(OC)c(OC)c3c2c1cc[n+]3CCCCCCCCCCCC		<1 µM
Cc1ccc[n+]([O-])c1S(=O)(=O)C(C)c1ccccc1Cl	cell count	38 µg/mL
O=S(=O)(Nc1nnc2c3ccccc3cnn12)c1ccc(Cl)cc1S		>200 µM
CCN1C=Cc2nccc3cc(OC)c(OC)c1c23		69 µM
Cc1c(OC(=O)CCCCOc2ccc(C[C@H](NC(=O)OC(C)(C)C)C(=O)O)cc2)cccc1C(=O)N[C@@H](CSc1ccccc1)[C@H](O)CN1C[C@H]2CCCC[C@H]2C[C@H]1C(=O)NC(C)(C)C	MTT	>100 µM
Cc1ccoc1C(=S)Nc1ccc(Cl)c(/C=N/OC(C)C)c1		3.1 µg/mL
C[C@H](CCC=C(c1cc(Cl)c(O)c(C(=O)O)c1)c1cc(Cl)c(O)c(C(=O)O)c1)[C@H]1CC[C@H]2[C@@H]3CC[C@@H]4CCCC[C@]4(C)[C@H]3CC[C@]12C		79 µM
CC(C)C(OC(=O)c1cc(NC(=S)c2ccccc2F)ccc1Cl)C(C)C		7.5 µg/mL
Cn1cc(NC(=O)c2cc(NC(=O)[C@H]3CCC(N)=N3)c[nH]2)cc1C(=O)NCCC(=N)N		750 µM
CCCCCCCCCC=C(c1cc(Cl)c(O)c(C(=O)O)c1)c1cc(Cl)c(O)c(C(=O)O)c1		>49.1 µM
Cc1occc1C(=S)Nc1ccc(Cl)c(C(=O)OC2CCCCC2)c1		9.7 µg/mL
Cc1ccc(C)c(CS(=O)(=O)c2ccccn2)c1	cell count	51 µg/mL
C/C=C/COc1cc(NC(=O)c2ccoc2C)ccc1Cl		5.8 µg/mL
Cc1ccc(CS(=O)(=O)c2c(C)ccc[n+]2[O-])c(C)c1	cell count	11 µg/mL
O=C(OC1CCCCC1)c1cc(NC(=S)c2ccccc2Cl)ccc1Cl		8.3 µg/mL
CC(C)C[C@H](NC(=O)OC(C)(C)C)C(=O)O[C@@H]1Cc2ccccc2[C@@H]1NC(=O)[C@H](Cc1ccccc1)C[C@H](O)CN1CCN(Cc2cccnc2)C[C@H]1C(=O)NC(C)(C)C	MTT	>100 µM
CC(C)(C)O/N=C/c1cc(NC(=S)c2ccccc2)ccc1Cl		9.7 µg/mL
Cc1cn(C2OC(CO[Si](C)(C)C(C)(C)C)C3(OS(=O)(=O)C=C3N)C2O[Si](C)(C)C(C)(C)C)c(=O)n(/C=C\CO)c1=O		44 µM
O=C(CN1c2c(-c3ccccc3)n[nH]c2-c2ccccc2S1(=O)=O)N/N=C/c1ccccc1[N+](=O)[O-]		2 µM
COCC(c1cc(C)ccc1C)S(=O)(=O)c1ccccn1	cell count	≥100 µg/mL
COc1cc2ccnc3c2c(c1OCCCCCCOc1c(OC)cc2ccnc4c2c1N(C)C=C4)N(C)C=C3		<1 µM
O=C(CN1c2c(-c3ccccc3)n[nH]c2-c2ccccc2S1(=O)=O)N/N=C/c1ccc(Cl)cc1Cl		10.9 µM
CC(C)=CCC[C@]1(C)C=Cc2c(ccc3c2C(=O)C(O)=C(C2=C(C4=C(O)C(=O)c5c(ccc6c5C=C[C@@](C)(CCC=C(C)C)O6)C4=O)C(=O)c4c(ccc5c4C=C[C@@](C)(CCC=C(C)C)O5)C2=O)C3=O)O1	MTT	22 µM
CC(C)(C)[Si](C)(C)OC[C@H]1O[C@@H](n2ccc(=O)[nH]c2=O)[C@H](O[Si](C)(C)C(C)(C)C)/C1=C/CO	propidium iodide / flow cytometry	24 µM
Cc1ccc(C)c(C(C)S(=O)(=O)c2c(Cl)ccc[n+]2[O-])c1	cell count	1.7 µg/mL
CC1=C(C(=S)Nc2ccc(Cl)c(C=NOC(C)(C)C)c2)CCCO1		10 µg/mL
O=S(=O)(Cc1ccccc1Oc1ccccc1)c1cccc[n+]1[O-]	cell count	10 µg/mL
Cc1ccc(C)c(C(C)S(=O)(=O)c2c(C)ccc[n+]2[O-])c1		36 µg/mL
CC(C)CCC[C@@H](C)[C@H]1CC[C@H]2[C@@H]3CC[C@H]4C[C@@H](CCCC(c5cc(Cl)c(O)c(C(=O)O)c5)c5cc(Cl)c(O)c(C(=O)O)c5)CC[C@]4(C)[C@H]3CC[C@]12C		>310 µM
CC(C)(C)[Si](C)(C)OC[C@H]1O[C@@H](n2ccc(=O)[nH]c2=O)[C@H](O[Si](C)(C)C(C)(C)C)[C@@]12O[C@H]2C(=O)NN	propidium iodide / flow cytometry	10–50 µM
Cc1ccc[n+]([O-])c1S(=O)(=O)Cc1cccc([N+](=O)[O-])c1C	cell count	9.6 µg/mL
CCCCCC[n+]1ccc2cc(OC)c(OC)c3c2c1C=CN3		5.3 µM
COC(=O)C(c1cc(C)ccc1C)S(=O)(=O)c1cccc[n+]1[O-]	cell count	36 µg/mL
COc1ccc(/C=N/N=C(\N)NO)c(OC)c1.Cc1ccc(S(=O)(=O)O)cc1		78 µg/mL
CC(C)(C)NC(=O)[C@@H]1C[C@@H]2CCCC[C@@H]2CN1C[C@@H](OC(=O)NCCCCOc1ccc(C[C@H](N)C(=O)O)cc1)[C@H](Cc1ccccc1)NC(=O)[C@H](CC(N)=O)NC(=O)c1ccc2ccccc2n1	MTT	>100 µM
C=CCOc1cc(NC(=S)c2ccoc2C)ccc1C#N		>100 µg/mL
Cc1cc2c(cc1Cl)SC1=NC(CSCc3ccccc3)CN1S2(=O)=O	XTT	>200 µM
COc1ccc(NC(=O)c2ccoc2C)cc1CC(=O)OC(C)C		52 µg/mL
N#Cc1ccc(CS(=O)(=O)c2cccc[n+]2[O-])cc1	cell count	12 µg/mL
Cc1ccc(C)c(CSc2c(Cl)ccc[n+]2[O-])c1		38 µg/mL
CCCCCC=C(c1cc(Cl)c(OC)c(C(=O)O)c1)c1cc(Cl)c(OC)c(C(=O)O)c1		13.4 µM
CC(C)OC(=O)c1cc(NC(=S)c2ccccc2)ccc1Cl		4.3 µg/mL
[O-][n+]1cc(Cl)ccc1SCc1ccccc1	cell count	66 µg/mL
COC1=C(C2=C(Cl)C(=O)c3ccccc3C2=O)C(=O)c2ccc3c(c2C1=O)C=CC(C)(C)O3	MTT	3.5 µM

CCn: concentration that lowers growth or viability of the cells by n%. Two numbers with a dash give a range or band. Blank or dashed fields: not listed here.